{"source": "PubChem BioAssay AID504761 – Drosophila RNAi Screening Center, 2011", "screen": "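Fly genes whose silencing reduces dengue virus type 2 infection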 (primary screen)", "cells": "D.Mel-2 cells from Drosophila", "reagents": "long dsRNA against Drosophila genes", "conditions": "infection with dengue virus type 2; dose and infection time not stated", "detection": "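Cells stained for dengue envelope protein and imaged; percent of infected cells per well on duplicate plates, ranked by infection, with stained nuclei counted for cell number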", "direction": "infection score: higher = more virus-infected cells; cell count: higher = more cells in the well", "rule for the call": "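Very low infection ranking in both replicate wells (chance probability at most 0.065), then a retest showing infection dropped 1.5-fold or more at p below 0.05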", "calls": "active = confirmed: knock-down lowers infection; inactive = not picked or not confirmed", "note": "The deposit covers about 22,000 reagents; this is a random part of those with a known target gene and a result. Of all reagents, 116 (0.52%) are marked active. 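Calls depend on retest data that are not deposited; infection was ranked per plate without normalising between plates; the unit of the infection score is not given.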 Raw values vary from plate to plate and are shown uncorrected. Unmarked entries are inactive. Further read-outs or replicates are left out here. Reagent sequences are not shown. Not stated in the record: the amount of reagent, the time to read-out."}
{"gene knocked down": "CG15111", "amplicon": "DRSC21467", "infection score, replicate 1": 1.66, "cell count, replicate 1": 6737}
{"gene knocked down": "Gycbeta100B (Guanylyl cyclase beta-subunit at 100B)", "amplicon": "DRSC14039", "infection score, replicate 1": 0.88, "cell count, replicate 1": 6605}
{"gene knocked down": "Gycbeta100B (Guanylyl cyclase beta-subunit at 100B)", "amplicon": "DRSC14040", "infection score, replicate 1": 2.65, "cell count, replicate 1": 5920}
{"gene knocked down": "Gycbeta100B (Guanylyl cyclase beta-subunit at 100B)", "amplicon": "DRSC16691", "infection score, replicate 1": 1.17, "cell count, replicate 1": 5986}
{"gene knocked down": "Gycbeta100B (Guanylyl cyclase beta-subunit at 100B)", "amplicon": "DRSC28797", "infection score, replicate 1": 16, "cell count, replicate 1": 3671}
{"gene knocked down": "ohgt (ohgata)", "amplicon": "DRSC15521", "infection score, replicate 1": 12.6, "cell count, replicate 1": 6208}
{"gene knocked down": "ohgt (ohgata)", "amplicon": "DRSC30024", "infection score, replicate 1": 5.67, "cell count, replicate 1": 6221}
{"gene knocked down": "CG6836", "amplicon": "DRSC10722", "infection score, replicate 1": 5.75, "cell count, replicate 1": 6257}
{"gene knocked down": "CG6836", "amplicon": "DRSC26906", "infection score, replicate 1": 6.53, "cell count, replicate 1": 6801}
{"gene knocked down": "by (blistery)", "amplicon": "DRSC16482", "infection score, replicate 1": 4.25, "cell count, replicate 1": 6536}
{"gene knocked down": "by (blistery)", "amplicon": "DRSC28644", "infection score, replicate 1": 23.3, "cell count, replicate 1": 6311}
{"gene knocked down": "Obp57a (Odorant-binding protein 57a)", "amplicon": "DRSC22047", "infection score, replicate 1": 1.76, "cell count, replicate 1": 6434}
{"gene knocked down": "Obp57a (Odorant-binding protein 57a)", "amplicon": "DRSC25699", "infection score, replicate 1": 1.94, "cell count, replicate 1": 6094}
{"gene knocked down": "Lcp65Ac", "amplicon": "DRSC11210", "infection score, replicate 1": 1.11, "cell count, replicate 1": 5492}
{"gene knocked down": "Lcp65Ac", "amplicon": "DRSC23931", "infection score, replicate 1": 8, "cell count, replicate 1": 6122}
{"gene knocked down": "CG9215", "amplicon": "DRSC20171", "infection score, replicate 1": 5.1, "cell count, replicate 1": 5916}
{"gene knocked down": "mia (meiosis I arrest)", "amplicon": "DRSC12137", "infection score, replicate 1": 7.29, "cell count, replicate 1": 2743}
{"gene knocked down": "CG7966", "amplicon": "DRSC16356", "infection score, replicate 1": 23.1, "cell count, replicate 1": 5082}
{"gene knocked down": "Cyt-c-d (Cytochrome c distal)", "amplicon": "DRSC03309", "infection score, replicate 1": 11.2, "cell count, replicate 1": 5864}
{"gene knocked down": "Cyt-c-d (Cytochrome c distal)", "amplicon": "DRSC30051", "infection score, replicate 1": 2.01, "cell count, replicate 1": 6082}
{"gene knocked down": "kon (kon-tiki)", "amplicon": "DRSC02033", "infection score, replicate 1": 13.9, "cell count, replicate 1": 6545}

Targets above whose gene name starts with G or g:
{"gene knocked down": "Gycbeta100B (Guanylyl cyclase beta-subunit at 100B)", "amplicon": "DRSC14039", "infection score, replicate 1": 0.88, "cell count, replicate 1": 6605}
{"gene knocked down": "Gycbeta100B (Guanylyl cyclase beta-subunit at 100B)", "amplicon": "DRSC14040", "infection score, replicate 1": 2.65, "cell count, replicate 1": 5920}
{"gene knocked down": "Gycbeta100B (Guanylyl cyclase beta-subunit at 100B)", "amplicon": "DRSC16691", "infection score, replicate 1": 1.17, "cell count, replicate 1": 5986}
{"gene knocked down": "Gycbeta100B (Guanylyl cyclase beta-subunit at 100B)", "amplicon": "DRSC28797", "infection score, replicate 1": 16, "cell count, replicate 1": 3671}
